Laboratory results: PubChem BioAssay AID1259414 (Drosophila RNAi Screening Center, 2018)
Aim: 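Genome-wide screen for host control of endosymbiont load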 (primary screen). Cells: Drosophila JW18 cells infected with Wolbachia. Reagents: long dsRNA against Drosophila genes, 0.25 µg dsRNA per well of a 384-well plate. Duration: 5 days. Challenge: cells persistently infected with Wolbachia before knock-down; no added drug. Measured: 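Automated imaging of bacterial rRNA staining divided by host cell count, reported as plate-normalised robust z-score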. Scale: Wolbachia per cell robust z: higher = more Wolbachia per host cell than the plate typical. Hit rule: 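Hit when robust z is 1.5 or more, or -1.5 or less, in at least two of three replicates; excludes dsRNAs with several or no targets, genes not expressed in JW18 and well A1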.
The screen tested about 24,000 reagents; shown is a random part of those with a known target gene and a result. In the full data, about 1,210 (5%) got an active call. 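Inactive calls also include excluded dsRNAs with several or no targets, genes unexpressed in JW18, and well A1, regardless of score.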 The numbers tell different reagents against one gene apart. A plus sign joins genes that one reagent is predicted to hit.

target gene	reagent no.	Wolbachia per cell robust z, rep 1	Wolbachia per cell robust z, rep 2	Wolbachia per cell robust z, rep 3	Call
Ptp99A (Protein tyrosine phosphatase 99A)	1	-0.956	0.781	1.02	inactive
Ptp99A (Protein tyrosine phosphatase 99A)	2	0.346	-0.0344	-0.158	inactive
Ptp99A (Protein tyrosine phosphatase 99A)	3	-1.16	-0.437	0.797	inactive
Ptp99A (Protein tyrosine phosphatase 99A)	4	0.358	-0.206	-0.404	inactive
Ptp99A (Protein tyrosine phosphatase 99A)	5	-0.809	0.82	1	inactive
Ptp99A (Protein tyrosine phosphatase 99A)	6	0.104	0.0854	0.191	inactive
Ptp99A (Protein tyrosine phosphatase 99A)	7	-0.00459	-1.81	-0.679	inactive
tsr (twinstar)	1	0.702	2.37	1.85	active
tsr (twinstar)	2	-0.991	0.0866	0.0365	inactive
bigmax	1	0.178	-0.118	-0.238	inactive
bigmax	2	-0.321	1.19	-0.178	inactive
ATP8B (ATPase 8B)	1	0.793	-0.0625	0.346	inactive
lig (lingerer)	1	-0.498	1.78	-0.00933	inactive
lig (lingerer)	2	-0.806	-0.523	-0.374	inactive
lig (lingerer)	3	0.137	0.332	-0.123	inactive
h-cup (heineken-cup)	1	-0.495	-0.176	0.69	inactive
h-cup (heineken-cup)	2	0.138	2.92	-0.927	inactive
Incenp (Inner centromere protein)	1	1.96	-0.111	1.49	inactive
Incenp (Inner centromere protein)	2	0.359	-0.398	-0.908	inactive
Incenp (Inner centromere protein)	3	1.87	4.39	4.8	active
CG13324 + CG13323	1	1.11	-6.97	-1.22	inactive
eIF4E4 (eukaryotic translation initiation factor 4E4)	1	-0.933	-0.0879	0.115	inactive
nrv1 (nervana 1)	1	-1.47	0.18	-1.87	inactive
Vha44 (Vacuolar H[+] ATPase 44kD subunit)	1	-2.18	0.942	-0.965	inactive
Vha44 (Vacuolar H[+] ATPase 44kD subunit)	2	-1.14	-4.41	0.961	inactive
Vha44 (Vacuolar H[+] ATPase 44kD subunit)	3	-1.27	-0.557	-0.505	inactive
tna (tonalli)	1	1.5	-1.42	-0.227	inactive
tna (tonalli)	2	-1.39	-0.296	-1.44	inactive
CG13319	1	0.472	0.134	0.828	inactive
CG14325	1	1.3	-4.3	-0.149	inactive
CG34002 + CR43087	1	-0.156	-1.2	-1.77	inactive
CG30398	1	-2.27	-1.37	-0.495	inactive
MsrA (Methionine sulfoxide reductase A)	1	-2.21	-0.238	-2.83	active

A run of entries taken from the entries so far:
target gene	reagent no.	Wolbachia per cell robust z, rep 1	Wolbachia per cell robust z, rep 2	Wolbachia per cell robust z, rep 3	Call
tna (tonalli)	1	1.5	-1.42	-0.227	inactive
tna (tonalli)	2	-1.39	-0.296	-1.44	inactive
CG13319	1	0.472	0.134	0.828	inactive
CG14325	1	1.3	-4.3	-0.149	inactive
CG34002 + CR43087	1	-0.156	-1.2	-1.77	inactive

Next results follow.
target gene	reagent no.	Wolbachia per cell robust z, rep 1	Wolbachia per cell robust z, rep 2	Wolbachia per cell robust z, rep 3	Call
Nf1 (Neurofibromin 1)	1	-0.618	-0.887	-0.201	inactive
Nf1 (Neurofibromin 1)	2	-5.87	-3.63	1.32	active
ct (cut)	1	-1.43	-1.72	-1.52	inactive
ct (cut)	2	0.218	1.6	2.24	inactive
CtsB (Cathepsin B)	1	-0.208	-0.786	-1.63	inactive
Sod3 (Superoxide dismutase 3)	1	0.141	-0.396	0.538	inactive
Sod3 (Superoxide dismutase 3)	2	0.172	0.0484	0.304	inactive
CG5504	1	0.791	-1.72	0.56	inactive
asRNA:CR43426 + CG32462	1	1.38	0.262	0.144	inactive
TkR99D (Tachykinin-like receptor at 99D)	1	0.711	-0.0129	0.439	inactive
Mrp5 (Multidrug resistance protein 5)	1	-1.16	-1.83	-1.09	inactive
Mrp5 (Multidrug resistance protein 5)	2	-1.46	0.845	-6.61	inactive
Mrp5 (Multidrug resistance protein 5)	3	-0.812	-0.00741	-8.45	inactive
D (Dichaete)	1	-1.07	0.942	-0.29	inactive
D (Dichaete)	2	-1.13	0.677	-2.06	inactive
PGRP-LE (Peptidoglycan recognition protein LE)	1	0.185	-1.98	0.0249	inactive
MICU3 (Mitochondrial calcium uptake 3)	1	-0.0507	0.516	0.0363	inactive
MICU3 (Mitochondrial calcium uptake 3)	2	-0.523	-0.633	-0.403	inactive
Hex-C (Hexokinase C)	1	0.933	-1.34	1.16	inactive
Hex-C (Hexokinase C)	2	-0.314	-0.292	-1.69	inactive
CG7370 + Syn1	1	-0.744	0.72	-0.331	inactive
Pi3K92E (Phosphatidylinositol 3-kinase 92E)	1	0.016	1.45	0.892	inactive
Pi3K92E (Phosphatidylinositol 3-kinase 92E)	2	1.18	1.26	0.561	inactive
RecQ4 (RecQ4 helicase)	1	-0.116	-1.13	-0.965	inactive
RecQ4 (RecQ4 helicase)	2	0.829	1.47	0.911	inactive
His-Psi:CR31754 (pseudo)	1	-0.202	0.514	1.72	inactive
CG5043	1	1.38	0.306	0.128	inactive
CG5043	2	-0.782	-0.267	-0.35	inactive
nst (nesthocker)	1	-1.44	0.0452	0.175	inactive
Gbp1 (Growth-blocking peptide 1)	1	-0.0977	-0.157	0.435	inactive
CG13064	1	1.47	-0.993	1.21	inactive
CG31436	1	-5.03	-0.793	0.573	inactive
CG31436	2	0.604	0.135	-0.112	inactive
r (rudimentary)	1	-3.58	0.23	-0.441	inactive
r (rudimentary)	2	-0.698	1.36	0.763	inactive
r (rudimentary)	3	-2.62	-3.96	-0.446	active
